Measured values from several laboratories, pooled; numbers as filed in NIAID ChemDB.

All rows: growth or infection tests; agent: Hepatitis C virus; measure: EC50

Neighbouring rows are from separate reports.

NC(=O)c1ncn([C@@H]2O[C@H](CO)[C@@H](O)[C@H]2O)n1 ; cells: HUH7/REP-FEO ; result: 125.8 µM
NC(=O)c1ncn([C@@H]2O[C@H](CO)[C@@H](O)[C@H]2O)n1 ; cells: HuH6 ; result: >33 µM
O=C(O)c1cc2c(s1)c(C1CCCCC1)c(-c1ccccc1)n2Cc1ccncc1 ; cells: Huh7 ; result: 4.2 µM
COC(=O)c1cn([C@@H]2C[C@H](CCP(=O)(O)O)C[C@H]2O)nn1 ; cells: Huh7 ; result: >320 µM
C[C@@]1(O)[C@H](O)[C@@H](CO)O[C@H]1n1cnc2c(=O)[nH]c(N)nc21 ; result: 3.5 µM
COc1cc([C@@H]2Oc3cc([C@H]4Oc5cc(O)cc(O)c5C(=O)[C@@H]4O)ccc3O[C@H]2CO)ccc1O ; strain: 1b ; result: 24.5 µM
COCn1c(-c2ccccc2)c(C2CCCCC2)c2sc(C(=O)O)c(CNCc3ccccc3)c21 ; cells: Huh7 ; result: 1.3 µM
C[C@@]1(O)[C@H](O)[C@@H](CO)O[C@H]1n1ccc2c(N)nc(N)nc21 ; cells: Huh7 ; result: <100 µM
CN(C)Cc1c(C(=O)O)sc2c(C3CCCCC3)c(-c3ccccc3)[nH]c12 ; cells: Huh7 ; result: 3.4 µM
NC(=O)c1cn([C@@H]2C[C@H](CO)C[C@H]2O)nn1 ; cells: Huh7 ; result: >320 µM
COC(=O)[C@H](C)NP(=O)(OC[C@H]1O[C@@H](n2ccc3c(N)ncnc32)[C@](C)(O)[C@@H]1O)Oc1ccccc1 ; cells: Huh7 ; result: <100 µM
C[C@@]1(O)[C@H](O)[C@@H](CO)O[C@H]1n1cnc2c(=O)[nH]c(N)nc21 ; conditions: 48 h ; cells: Huh7 ; result: 1.4 µM
CN(C)CCN1CCn2c(c(C3CCCCC3)c3sc(C(=O)O)cc32)-c2ccccc21 ; cells: Huh7 ; result: 0.21 µM
NC(=O)c1ncn([C@@H]2O[C@H](CO)[C@@H](O)[C@H]2O)n1 ; result: 12–40 µM
COCn1c(-c2ccccc2)c(C2CCCCC2)c2sc(C(=O)O)c(CN(C)Cc3ccccc3)c21 ; cells: Huh7 ; result: 1.1 µM
C=CC[C@@H]1/C=C(/C)C[C@H](C)C[C@H](OC)[C@H]2O[C@@](O)(C(=O)C(=O)N3CCCC[C@H]3C(=O)O[C@H](/C(C)=C/[C@@H]3CC[C@@H](O)[C@H](OC)C3)[C@H](C)[C@@H](O)CC1=O)[C@H](C)C[C@@H]2OC ; cells: Huh7 ; result: 7.5 µM
CC(C)N1CCC(N(C)C(=O)Cn2c(-c3ccc(Cl)cc3)c(C3CCCCC3)c3sc(C(=O)O)cc32)C1 ; cells: Huh7 ; result: 0.52 µM
COC(=O)[C@H](C)NP(=O)(OC[C@H]1O[C@@H](n2ccc3c(N)nc(N)nc32)[C@](C)(O)[C@@H]1O)Oc1ccccc1 ; cells: Huh7 ; result: <100 µM
CN1CCCC(CNC(=O)Cn2c(-c3ccc(Cl)cc3)c(C3CCCCC3)c3sc(C(=O)O)cc32)C1 ; cells: Huh7 ; result: 0.77 µM
C[C@@]1(O)[C@H](O)[C@@H](CO)O[C@H]1n1ccc2c(=O)[nH]c(N)nc21 ; cells: Huh7 ; result: <100 µM
O=C(O)c1cc2[nH]c(-c3ccccc3)c(C3CCCCC3)c2s1 ; cells: Huh7 ; result: 11.2 µM
C[C@]12C=CC(=O)C=C1CC[C@@H]1[C@@H]2C(=O)C[C@@]2(C)[C@H]1CC[C@]2(O)C(=O)CO ; cells: Huh7 ; result: 300 µM
NC(=O)c1nnn([C@@H]2C[C@H](CCP(=O)(O)O)C[C@H]2O)c1N ; cells: Huh7 ; result: >320 µM
CC[C@H](C)C(=O)O[C@H]1C[C@@H](C)C=C2C=C[C@H](C)[C@H](CC[C@@H]3C[C@@H](O)CC(=O)O3)[C@H]21 ; cells: HUH7-K2040 ; result: >10 µM

For reference, 2 entries again:

C[C@@]1(O)[C@H](O)[C@@H](CO)O[C@H]1n1cnc2c(=O)[nH]c(N)nc21 ; conditions: 48 h ; cells: Huh7 ; result: 1.4 µM
NC(=O)c1nnn([C@@H]2C[C@H](CCP(=O)(O)O)C[C@H]2O)c1N ; cells: Huh7 ; result: >320 µM

a–b is a range or a potency band. ECn is the concentration giving n% inhibition of infection, replication or growth.